Experimental data published in patent publication US20060094693A1, “Methods and compositions for treating glucose-associated conditions, metabolic syndrome, dyslipidemias and other conditions” (Point Therapeutics, Inc., priority 2004, published 2006).

By UniProt entry, the sequences of proteins in these tests, tags left out. Residues count along the entry.
UniProt P14740, 37-767 limits assumed: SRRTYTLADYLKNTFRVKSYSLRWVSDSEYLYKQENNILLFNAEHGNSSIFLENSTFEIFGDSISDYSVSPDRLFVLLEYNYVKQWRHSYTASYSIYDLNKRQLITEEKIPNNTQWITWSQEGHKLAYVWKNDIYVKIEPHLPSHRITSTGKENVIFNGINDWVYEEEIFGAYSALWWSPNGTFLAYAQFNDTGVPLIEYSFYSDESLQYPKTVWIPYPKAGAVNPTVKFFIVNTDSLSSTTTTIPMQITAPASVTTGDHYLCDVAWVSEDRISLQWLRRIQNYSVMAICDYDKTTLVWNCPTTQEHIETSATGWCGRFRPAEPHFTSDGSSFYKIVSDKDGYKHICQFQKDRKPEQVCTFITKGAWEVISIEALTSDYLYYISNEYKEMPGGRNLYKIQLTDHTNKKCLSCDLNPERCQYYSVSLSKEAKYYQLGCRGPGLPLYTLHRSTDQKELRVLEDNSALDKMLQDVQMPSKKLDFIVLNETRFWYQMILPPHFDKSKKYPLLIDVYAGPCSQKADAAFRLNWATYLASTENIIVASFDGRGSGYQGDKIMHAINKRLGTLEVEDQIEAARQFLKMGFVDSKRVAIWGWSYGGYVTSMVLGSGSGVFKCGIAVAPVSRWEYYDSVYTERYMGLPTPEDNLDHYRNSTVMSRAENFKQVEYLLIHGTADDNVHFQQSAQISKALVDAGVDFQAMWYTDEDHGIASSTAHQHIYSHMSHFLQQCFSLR

Molecular target: T1, serum DPP-IV (Rattus norvegicus, UniProt P14740)
T1 construct: from tissue; host or cells: serum of Lewis rats dosed with the compounds
Experiment: Serum DPP-IV inhibition in Lewis rats
Type: in vivo
Conditions: ratio of ID50 values
Experimental: Assay of serum DPP-IV inhibition in vivo. Varying doses (0.02, 0.2, 2.0, 20.0 μg/mouse) of Glu-boroPro dissolved in normal saline or the saline vehicle alone were administered to BALB/c mice by oral gavage. Each mouse received a single administration of Glu-boroPro or saline, and blood samples were withdrawn from mice 2 hours later. […]. DPP-IV activity was determined by reaction of 10 μl serum with 90 μl of 0.11 mM Ala-Pro-AFC (Enzyme System Products, Dublin, Calif.) in 50 mM HEPES/Na buffer pH 7.6, 140 mM NaCl. Assays were incubated for 30 minutes, stopped and fluorometric measurements made as described in Example 1. […].

N[C@@H](CCC(=O)O)C(=O)N1CCC[C@H]1B(O)O [Glu-boroPro, glutamic acid boroproline]
potency as inhibitor of serum DPP-IV, less potent than Val-boroPro: ~10 fold
